Pooled drug test results. Numbers come from NIAID ChemDB, via PubChem.

All rows: toxicity to cultured cells; cells: HepG2.2.15; read-out: CC50

CCn: concentration that lowers growth or viability of the cells by n%.

{"smiles": "CC(=O)OC(C)(C)[C@H](OC(=O)C(C)C)[C@H](C[C@@H](C)C1=C2C[C@H](OC(=O)C(C)C)[C@H]3[C@@]4(C)CCC(=O)C(C)(C)[C@@H]4CC[C@]3(C)[C@@]2(C)CC1)OC(=O)C(C)C", "value": ">1900 µM"}
{"smiles": "COC(=O)C1=C(CN2[C@@H]3CC[C@@H]2COC3)NC(c2ncc(F)cc2F)=N[C@H]1c1ccc(F)cc1Cl", "value": "9 µM"}
{"smiles": "CC(C)(O)CCC(=O)[C@](C)(O)C1[C@H](O)C[C@@]2(C)[C@@H]3CC=C4[C@@H](C[C@H](O)[C@@H](O)C4(C)C)[C@]3(C)C(=O)C[C@]12C", "value": "60.6 µM"}
{"smiles": "CC(=O)OCC(=O)O[C@@H](C[C@@H](C)C1=C2C[C@H](OC(=O)COC(C)=O)[C@H]3[C@@]4(C)CCC(=O)C(C)(C)[C@@H]4CC[C@]3(C)[C@@]2(C)CC1)[C@@H](OC(=O)COC(C)=O)C(C)(C)O", "value": "51 µM"}
{"smiles": "CCOCC(=O)OC(C)(C)[C@H](OC(C)=O)[C@H](C[C@@H](C)C1=C2C[C@H](OC(C)=O)[C@H]3[C@@]4(C)CCC(=O)C(C)(C)[C@@H]4CC[C@]3(C)[C@@]2(C)CC1)OC(C)=O", "value": ">2800 µM"}
{"smiles": "CS(=O)(=O)OCCc1c(OS(C)(=O)=O)nc2ccc(Cl)cc2c1-c1ccccc1Cl", "value": "804.1 µM"}
{"smiles": "CCC(=O)O[C@@H](C[C@@H](C)C1=C2C[C@H](OC(=O)CC)[C@H]3[C@@]4(C)CCC(=O)C(C)(C)[C@@H]4CC[C@]3(C)[C@@]2(C)CC1)[C@@H](OC(=O)CC)C(C)(C)OC(C)=O", "value": ">1700 µM"}
{"smiles": "COCCC1=C(C(=O)OC)[C@H](c2ccc(F)cc2Cl)N=C(c2ncc(F)cc2F)N1", "value": "38 µM"}
{"smiles": "CC1(C)[C@@H](OC(=O)c2cc(=O)c3ccccc3o2)CC[C@]2(C)[C@H]3CC=C4[C@@H]5C[C@@](C)(C(=O)OCc6ccc(C(F)(F)F)cc6)CC[C@]5(C)CC[C@@]4(C)[C@]3(C)CC[C@@H]12", "value": ">1170 µM"}
{"smiles": "CCOCC(=O)O[C@H]1C[C@@H]2C(=CC[C@@H]3[C@@]2(C)C(=O)C[C@]2(C)C([C@@](C)(O)C(=O)CCC(C)(C)OC(=O)COCC)[C@H](OC(=O)COCC)C[C@@]32C)C(C)(C)[C@@H]1OC(=O)COCC", "value": ">1450 µM"}
{"smiles": "CCOC(=O)CCCOC(=O)[C@@]1(C)CC[C@]2(C)CC[C@]3(C)C(=CC[C@@H]4[C@@]5(C)CC[C@H](O)C(C)(C)[C@@H]5CC[C@]43C)[C@@H]2C1", "value": "530 µM"}
{"smiles": "C[C@H](C[C@H](OC(=O)c1ccc(Cl)cc1)[C@@H](OC(=O)c1ccc(Cl)cc1)C(C)(C)O)C1=C2C[C@H](OC(=O)c3ccc(Cl)cc3)[C@H]3[C@@]4(C)CCC(=O)C(C)(C)[C@@H]4CC[C@]3(C)[C@@]2(C)CC1", "value": ">900 µM"}
{"smiles": "C[C@]1(CO)O[C@@H](n2ccc(=O)[nH]c2=O)[C@H](O)[C@@H]1O", "value": ">100 µM"}
{"smiles": "CCOCCOC(=O)[C@@]1(C)CC[C@]2(C)CC[C@]3(C)C(=CC(=O)[C@@H]4[C@@]5(C)CC[C@H](O)C(C)(C)[C@@H]5CC[C@]43C)[C@@H]2C1", "value": "541 µM"}
{"smiles": "CCC(=O)O[C@@H]1[C@@H](O)C[C@@H]2C(=CC[C@@H]3[C@@]2(C)C(=O)C[C@]2(C)C([C@@](C)(O)C(=O)CCC(C)(C)OC(C)=O)[C@H](O)C[C@@]32C)C1(C)C", "value": "100.3 µM"}
{"smiles": "Cc1cc(NC(=O)c2ccc(F)c(Br)c2)ccc1F", "value": ">100 µM"}
{"smiles": "COC(=O)C1=C(CN2CCN(c3ncc(F)cn3)CC2)NC(c2ncc(F)cc2F)=N[C@H]1c1ccc(F)cc1Cl", "value": ">5 µM"}
{"smiles": "CC1(C)[C@@H](O)CC[C@]2(C)[C@H]3C(=O)C=C4[C@@H]5C[C@@](C)(C(=O)OCc6cccc(F)c6)CC[C@]5(C)CC[C@@]4(C)[C@]3(C)CC[C@@H]12", "value": ">1310 µM"}
{"smiles": "CCOCC(=O)O[C@H]1C[C@H]2[C@]3(C)C(=O)C[C@]4(C)C([C@@](C)(O)C(=O)CCC(C)(C)OC(C)=O)[C@H](OC(=O)COCC)C[C@@]4(C)[C@@H]3C[C@@H](O)[C@@]2(OC(=O)c2cccc(Cl)c2)C(C)(C)[C@@H]1OC(=O)COCC", "value": ">710.4 µM"}
{"smiles": "CCOC(=O)CCCOC(=O)[C@@]1(C)CC[C@]2(C)CC[C@]3(C)C(=CC(=O)[C@@H]4[C@@]5(C)CC[C@H](O)C(C)(C)[C@@H]5CC[C@]43C)[C@@H]2C1", "value": "53.34 µM"}
{"smiles": "CC(=O)OC(C)(C)CCC(=O)[C@](C)(O)C1[C@H](O)C[C@@]2(C)[C@@H]3C[C@H]4O[C@@]45[C@@H](C[C@H](O)[C@@H](O)C5(C)C)[C@]3(C)C(=O)C[C@]12C", "value": ">1745 µM"}
{"smiles": "CCOCC(=O)O[C@@H](C[C@@H](C)C1=C2C[C@H](OC(=O)COCC)[C@H]3[C@@]4(C)CCC(=O)C(C)(C)[C@@H]4CC[C@]3(C)[C@@]2(C)CC1)[C@@H](OC(=O)COCC)C(C)(C)O", "value": ">2300 µM"}
{"smiles": "Cc1cc(NC(=O)c2c(C(C)C)noc2C)ccc1F", "value": ">100 µM"}
{"smiles": "CC1(C)[C@@H](O)CC[C@]2(C)[C@H]3C(=O)C=C4[C@@H]5C[C@@](C)(C(=O)OCc6cccc(Cl)c6)CC[C@]5(C)CC[C@@]4(C)[C@]3(C)CC[C@@H]12", "value": ">1850 µM"}
{"smiles": "CC(C)CCC(=O)O[C@@H](C[C@@H](C)C1=C2C[C@H](OC(=O)CCC(C)C)[C@H]3[C@@]4(C)CCC(=O)C(C)(C)[C@@H]4CC[C@]3(C)[C@@]2(C)CC1)[C@@H](OC(=O)CCC(C)C)C(C)(C)O", "value": ">900 µM"}
{"smiles": "O=c1[nH]c2ccc(Cl)cc2c(-c2ccccc2Cl)c1CCO", "value": "387.5 µM"}
{"smiles": "C[C@H](C[C@H](OC(=O)c1ccccc1I)[C@@H](OC(=O)c1ccccc1I)C(C)(C)O)C1=C2C[C@H](OC(=O)c3ccccc3I)[C@H]3[C@@]4(C)CCC(=O)C(C)(C)[C@@H]4CC[C@]3(C)[C@@]2(C)CC1", "value": ">1500 µM"}
{"smiles": "C[C@H](C[C@H](OC(=O)c1ccc(Cl)cc1)[C@@H](OC(=O)c1ccc(Cl)cc1)C(C)(C)OC(=O)c1ccc(Cl)cc1)C1=C2C[C@H](OC(=O)c3ccc(Cl)cc3)[C@H]3[C@@]4(C)CCC(=O)C(C)(C)[C@@H]4CC[C@]3(C)[C@@]2(C)CC1", "value": ">1400 µM"}
{"smiles": "C[C@H](Cn1cnc2c(N)ncnc21)OCP(=O)(O)O", "value": ">1740 µM"}
{"smiles": "C[C@H](C[C@H](OC(=O)CCC1CCCCC1)[C@@H](OC(=O)CCC1CCCCC1)C(C)(C)OC(=O)CCC1CCCCC1)C1=C2C[C@H](OC(=O)CCC3CCCCC3)[C@H]3[C@@]4(C)CCC(=O)C(C)(C)[C@@H]4CC[C@]3(C)[C@@]2(C)CC1", "value": ">1700 µM"}
{"smiles": "COC(=O)C1=C(CN2CCOC3CN(C(=O)OC(C)(C)C)CC32)NC(c2ncc(F)cc2F)=N[C@H]1c1ccc(F)cc1Cl", "value": "7 µM"}
{"smiles": "CCC(=O)O[C@H]1C[C@@H]2C(=CC[C@@H]3[C@@]2(C)C(=O)C[C@]2(C)C([C@@](C)(O)C(=O)CCC(C)(C)OC(C)=O)[C@H](O)C[C@@]32C)C(C)(C)[C@@H]1OC(=O)CC", "value": ">596.4 µM"}
{"smiles": "COCC(=O)OC(C)(C)[C@H](OC(C)=O)[C@H](C[C@@H](C)C1=C2C[C@H](OC(C)=O)[C@H]3[C@@]4(C)CCC(=O)C(C)(C)[C@@H]4CC[C@]3(C)[C@@]2(C)CC1)OC(C)=O", "value": ">920 µM"}
{"smiles": "CS(=O)(=O)OCCc1c(Cl)nc2ccc(Cl)cc2c1-c1ccccc1Cl", "value": "881.7 µM"}
{"smiles": "COC(=O)C1=C(CN2CCNC(=O)C2)NC(c2ncc(F)cc2F)=N[C@H]1c1ccc(F)cc1Cl", "value": "34 µM"}
{"smiles": "CCCCCCCC(=O)O[C@@H](C[C@@H](C)C1=C2C[C@H](OC(=O)CCCCCCC)[C@H]3[C@@]4(C)CCC(=O)C(C)(C)[C@@H]4CC[C@]3(C)[C@@]2(C)CC1)[C@@H](OC(=O)CCCCCCC)C(C)(C)OC(=O)CCCCCCC", "value": ">1600 µM"}
{"smiles": "Cc1cn([C@H]2OC(C)(CO)[C@H](O)[C@@H]2O)c(=O)[nH]c1=O", "value": ">100 µM"}
{"smiles": "CC(=O)OCC(=O)O[C@@H](C[C@@H](C)[C@]12CC[C@@]3(C)[C@@]1(C[C@H](OC(=O)COC(C)=O)[C@H]1[C@@]4(C)CCC(=O)C(C)(C)[C@@H]4CC[C@@]13C)O2)[C@@H](OC(=O)COC(C)=O)C(C)(C)O", "value": "250 µM"}
{"smiles": "CCOCC1=C(C(=O)OC)[C@H](c2ccc(F)cc2Cl)N=C(c2ncc(F)cc2F)N1", "value": ">25 µM"}
{"smiles": "C=C(C)[C@H](OC(=O)COCC)[C@H](C[C@@H](C)[C@]12CC[C@@]3(C)[C@@]1(C[C@H](OC(=O)COCC)[C@H]1[C@@]4(C)CCC(=O)C(C)(C)[C@@H]4CC[C@@]13C)O2)OC(=O)COCC", "value": ">1800 µM"}
{"smiles": "C[C@]1(CO)O[C@@H](n2cnc3c(=O)[nH]c(N)nc32)[C@H](O)[C@@H]1O", "value": ">100 µM"}
{"smiles": "CCC(O)CC1=C(C(=O)OC)C(c2ccc(F)cc2Cl)N=C(c2ncc(F)cc2F)N1", "value": "44 µM"}
{"smiles": "CC1(C)[C@@H](O)CC[C@]2(C)[C@H]3C(=O)C=C4[C@@H]5C[C@@](C)(C(=O)OCc6ccc([N+](=O)[O-])cc6)CC[C@]5(C)CC[C@@]4(C)[C@]3(C)CC[C@@H]12", "value": ">1330 µM"}
{"smiles": "CC(C)(C)C(=O)SCCOP(=O)(OCCOCn1cnc2c(=O)[nH]c(N)nc21)OCCSC(=O)C(C)(C)C", "value": "1593 µM"}

5 of the rows above, restated:

smiles | value
COCCC1=C(C(=O)OC)[C@H](c2ccc(F)cc2Cl)N=C(c2ncc(F)cc2F)N1 | 38 µM
CCOCC(=O)O[C@H]1C[C@H]2[C@]3(C)C(=O)C[C@]4(C)C([C@@](C)(O)C(=O)CCC(C)(C)OC(C)=O)[C@H](OC(=O)COCC)C[C@@]4(C)[C@@H]3C[C@@H](O)[C@@]2(OC(=O)c2cccc(Cl)c2)C(C)(C)[C@@H]1OC(=O)COCC | >710.4 µM
CC(C)CCC(=O)O[C@@H](C[C@@H](C)C1=C2C[C@H](OC(=O)CCC(C)C)[C@H]3[C@@]4(C)CCC(=O)C(C)(C)[C@@H]4CC[C@]3(C)[C@@]2(C)CC1)[C@@H](OC(=O)CCC(C)C)C(C)(C)O | >900 µM
CS(=O)(=O)OCCc1c(Cl)nc2ccc(Cl)cc2c1-c1ccccc1Cl | 881.7 µM
CC(C)(C)C(=O)SCCOP(=O)(OCCOCn1cnc2c(=O)[nH]c(N)nc21)OCCSC(=O)C(C)(C)C | 1593 µM

Neighbouring rows are from separate reports.